Laboratory results taken from US20070148124A1, “Cellulose and acrylic based polymers and the use thereof for the treatment of infectious diseases” (priority 2004, published 2007).

Tests used:
[1] = tested on: MAGI-R5 or HeLa CD4 LTR β-gal cells

Dextran sulfate [DS]
CC50 (wt. %) (P4-CCR5 cells): >1 wt. %
CC50 [1]: > 2000 µg/mL
